Anti-infective test results gathered from many reports (values: NIAID ChemDB through PubChem).

Common to all: toxicity to cultured cells; cell line: WI-38; read-out: CC50

Two numbers with a dash give a range or band. Lines come from different laboratories, so protocols vary. CCn: concentration that lowers growth or viability of the cells by n%.

| structure | value |
|---|---|
| Nc1nc2c(ncn2C[C@@H]2CC[C@@H](P(=O)(O)O)O2)c(=O)[nH]1 | 10–100 µg/mL |
| CCCCCN=C(N)c1ccc(N2CCN(c3ccc(C(N)=NCCCCC)cc3)CC2)cc1 | >0.14 µg/mL |
| Nc1nc2c(ncn2C[C@H]2CC[C@@H](P(=O)(O)O)O2)c(=O)[nH]1 | >100 µg/mL |
| O=c1[nH]c(=O)n(C2C[C@H](CO)[C@H]2CO)cc1C=CCl | >400 µM |
| CCCCCCCCCCCCN=C(N)c1ccc(N2CCN(c3ccc(C(N)=NCCCCCCCCCCCC)cc3)CC2)cc1 | 4.54 µg/mL |
| COc1ccc2nc3n[nH]c(C)c3c(Cl)c2c1 | >100 µg/mL |
| Nc1nc(N)c2ncn(C[C@@H]3CC[C@H](P(=O)(O)O)O3)c2n1 | 100 µg/mL |
| CCC(C)CN=C(N)c1ccc(N2CCN(c3ccc(C(N)=NCC(C)CC)cc3)CC2)cc1 | >0.107 µg/mL |
| O=c1[nH]c(=O)n([C@@H]2C[C@H](CO)[C@H]2CO)cc1C=CBr | ≥750 µM |
| Cc1nc(CC(O)CO)c2nc[nH]c(=O)n12 | >400 µg/mL |
| CCCCCCN=C(N)c1ccc(N2CCN(c3ccc(C(N)=NCCCCCC)cc3)CC2)cc1 | >0.409 µg/mL |
| C=CCc1nc(C)n2c(=O)[nH]c(NC(C)=O)nc12 | 400 µg/mL |
| CC1=NN(c2c(Cl)cc(Cl)cc2Cl)C(=O)C1 | 241 µM |
| Nc1nc2c(ncn2COC(CO)CO)c(=O)[nH]1 | 12.5 µg/mL |
| C=CCc1nc(C)n2c(=O)[nH]cnc12 | 200 µg/mL |

2 of the rows above, restated:

structure,value
Nc1nc2c(ncn2COC(CO)CO)c(=O)[nH]1,12.5 µg/mL
CCCCCCN=C(N)c1ccc(N2CCN(c3ccc(C(N)=NCCCCCC)cc3)CC2)cc1,>0.409 µg/mL